Laboratory results from patent US20240299591A1 (priority 2021, published 2024).

System: reconstructed cornea-like epithelium (RhCE, EpiOcular™)
Assay: Viability of reconstructed cornea-like epithelium (eye irritation model)
Assay type: cell-based
Experimental: FIG. 4a is a graph of the viability reconstructed cornea-like epithelium (RhCE, EpiOcular™) after incubation with MFIGA001. NC=Negative Control; PC=Positive Control. FIG. 4b is a graph of the viability reconstructed cornea-like epithelium (RhCE, EpiOcular™) after incubation with 10 µM of MFIGA001a and MFIGAF001b. NC=Negative Control; PC=Positive Control; A2=MFIGAF001a; and B1=MFIGAF001b.
MFIGAF001 was also assessed independently by a CRO (Evotec) in an OECD compliant reconstructed cornea-like epithelial cell model (RhCE, EpiOcular™).

Structure (SMILES)	Mean of OD (0.1 mg/ml)	Mean of OD (0.2 mg/mL)	Mean of OD (0.4 mg/mL)	Mean of OD (0.5 mg/mL)	Mean of OD (10 μM)
N=C(N)NCCC[C@@H]1NC(=O)CNC(=O)[C@H](Cc2c[nH]c3ccccc23)NC(=O)[C@H](Cc2ccccc2)NC(=O)[C@H](Cc2c[nH]c3ccccc23)NC(=O)[C@@H](Cc2ccccc2)NC(=O)[C@H](CCCCN)NC(=O)[C@H](CCCCN)NC1=O [MFIGAF001, Cyclo(Arg-Lys-Lys-phe-Trp-Phe-Trp-Gly)] (HELM PEPTIDE1{F.W.G.R.K.K.[dF].W}$PEPTIDE1,PEPTIDE1,1:R1-8:R2$$$V2.0)	1.910	1.908	1.940	2.051	
N=C(N)NCCC[C@@H]1NC(=O)CNC(=O)[C@H](CCCCNC(=O)c2cccc3c2C(=O)OC32c3ccc(O)cc3Oc3cc(O)ccc32)NC(=O)[C@H](Cc2c[nH]c3ccccc23)NC(=O)[C@H](Cc2ccccc2)NC(=O)[C@H](Cc2c[nH]c3ccccc23)NC(=O)[C@@H](Cc2ccccc2)NC(=O)[C@H](CCCCN)NC(=O)[C@H](CCCCN)NC1=O [MFIGAF001b, Cyclo(Arg-Lys-Lys-phe-Trp-Phe-Trp-Lys(CF)-Gly)] (cyclo(FWK(X2)GRKK[dF]W))					3.319

Some values come without a unit; they compare only within their column. Where a SMILES comes first, the peptide text is derived from it. [ ]: non-standard residue; d: D form. The star is where a group is joined. X2 = O=C1OC2(c3ccc(O)cc3Oc3cc(O)ccc32)c2cccc(C(=O)*)c21
